Results of unrelated studies side by side (data: NIAID ChemDB).

Inhibition is in % at the dose shown (toxicity tests: loss of growth or viability). CCn: concentration that lowers growth or viability of the cells by n%. ECn is the concentration giving n% inhibition of infection, replication or growth. MIC50, MIC90 and the like: level of inhibition, or share of isolates inhibited. ICn: concentration for n% inhibition. An empty or dashed field is not shown. Rows are shuffled and stem from different studies.

smiles | species | cells | target | read-out | test | method | tested at | changes | strain or isolate | result
CCOc1ccc2ccccc2c1C(=O)Nc1nnc(NCC(C)(C)C)s1 | Human cytomegalovirus | - | Polymerase | IC50 | target | - | - | - | - | >25 µM
Nc1ncc2ncn(C3OC(C(NC(=O)C4CCCC4N)C(=O)O)CC(O)(C(O)CO)C3O)c2n1 | - | HeLa | - | CC50 | toxicity | - | - | - | - | 1000 µg/mL
Cc1cn([C@@H]2O[C@H](CO[Si](C)(C)C(C)(C)C)C3(OS(=O)(=O)C=C3N)[C@H]2O[Si](C)(C)C(C)(C)C)c(=O)n(C)c1=O | HIV | - | Reverse transcriptase | IC50 | target | nucleotide incorporation / radiometric | - | RT-N137S | - | 1.4 µM
NS(=O)(=O)c1ccc(CCNc2nnc(NC(=O)/C=C/c3ccccc3Cl)s2)cc1 | Human cytomegalovirus | - | Polymerase | IC50 | target | - | - | - | - | <25 µM
CC1(C)S[C@@H]2[C@H](NC(=O)Cc3ccccc3)C(=O)N2[C@H]1C(=O)NCCNC(=O)[C@@H]1N2C(=O)[C@@H](NC(=O)Cc3ccccc3)[C@H]2SC1(C)C | Sus domesticus | - | Pepsin | IC50 | host protein | nucleotide incorporation | - | - | - | >500 µM
CCCCCCCC/C=C/CCCCCCCC(=O)Nc1nnc(NCc2ccco2)s1 | Human cytomegalovirus | - | Polymerase | IC50 | target | - | - | - | - | >25 µM
CC(C)C(=O)N1C[C@H](CN2CCC(c3ccccc3)CC2)[C@@H](c2ccccc2)C1 | - | - | CCR5 | IC50 | target | radiometric | - | - | - | 0.12 µM
C#CC[C@@H](C(=O)N[C@H](/C=C/C(=O)OCC)C[C@@H]1CCNC1=O)n1cccc(NC(=O)c2cc(C)on2)c1=O | Rhinovirus | H1-HELA | - | inhibition | culture | cytopathic effect / XTT | 0.239 µM | - | Serotype 9 | 90%
CC1(C)[C@@H](O[C@H]2O[C@H](C(=O)O)[C@@H](O)[C@H](O)[C@H]2O[C@@H]2O[C@H](C(=O)O)[C@@H](O)[C@H](O)[C@H]2O)CC[C@]2(C)[C@H]3C(=O)C=C4[C@@H]5C[C@@](C)(C(=O)O)CC[C@]5(C)CC[C@@]4(C)[C@]3(C)CC[C@@H]12 | Dengue virus | VERO | - | EC50 | culture | virus yield | - | - | TYPE 2 (NGC) | <317 µg/mL
Nc1ncnc2c1ncn2C[C@@H](CO)OCP(=O)(O)O | Adenovirus | - | - | EC90 | culture | virus yield | - | - | WT 300 (TYPE 5) | 4 µg/mL
CCOC(=O)Nc1cc(NC(C)/C(=N/O)c2ccccc2)c([N+](=O)[O-])c(N)n1 | Encephalitozoon intestinalis | RK-13 | - | inhibition | culture | - | 0.01 µg/mL | - | - | 0%
NC1C=CC(CC[C@H](N)C(=O)O)C=C1 | - | HeLa | - | CC50 | toxicity | - | - | - | - | 200 µg/mL
CC[C@H]1C(=O)Nc2ccc(F)cc2N1C(=O)OC(C)C | HIV | - | Reverse transcriptase | IC50 | target | nucleotide incorporation / radiometric | - | RT-P95A | - | 0.012 µM
Nc1ccnc2c1ncn2[C@H]1C=C[C@@H](OCP(=O)(O)O)O1 | Adenovirus | - | - | EC90 | culture | virus yield | - | - | TRIM (TYPE 8) | 14 µg/mL
Cc1c(CNc2cccc3c2CCCC3)cnc2nc(N)nc(N)c12 | Encephalitozoon intestinalis | RK-13 | - | inhibition | culture | - | 0.01 µg/mL | - | - | 0%
CCO/N=C/c1ccc(OCCC2CCN(c3ccc(C)nn3)CC2)cc1 | Rhinovirus | KB | - | EC50 | culture | neutral red | - | - | 611-CV35 (ICAM-1 receptor group 59) | 0.008 µM
CCN(C(=O)OCc1ccccc1)C1CCN(CC[C@](C)(CN(C)S(=O)(=O)c2ccccc2)c2ccccc2)CC1 | - | - | CCR5 | IC50 | target | radiometric | - | CCR5-D276A | - | 0.023 µM
O=C1Nc2ccc(Cl)cc2[C@@](C#CC2CC2)(C(F)(F)F)O1 | Human | - | DNA polymerase gamma | IC50 | host protein | - | - | - | - | 116.3 µM
CCSCCNc1nnc(NC(=O)c2ccc(Cl)c(Cl)c2)s1 | Human cytomegalovirus | - | Polymerase | IC50 | target | - | - | - | - | >25 µM
CCCCCCCC/C=C\CCCCCCCC(=O)OCC(O)CO | - | HeLa | - | CC50 | toxicity | - | - | - | - | 75 µg/mL
CC[C@H]1C[C@]1(NC(=O)[C@@H]1C[C@@H]2CN1C(=O)[C@H](C(C)(C)C)NC(=O)OCC(C)(C)CCCCc1cccc3c1CN(C3)C(=O)O2)C(=O)NS(=O)(=O)C1CC1 | - | - | Cathepsin S | IC90 | host protein | substrate cleavage | - | - | - | >100 µM
CCNC(=O)[C@@H](NC(=O)Cc1ccccc1)[C@@H]1N[C@@H](C(=O)NCCNC(=O)[C@@H]2N[C@@H]([C@H](NC(=O)Cc3ccccc3)C(=O)NCC)SC2(C)C)C(C)(C)S1 | Human | - | Renin | IC50 | host protein | HPLC | - | - | - | >500 µM
CCOC(=O)Nc1cc2c(cn1)N=C(c1ccccc1)[C@H](C)N2 | Encephalitozoon intestinalis | RK-13 | - | inhibition | culture | - | 0.1 µg/mL | - | - | 58.4%
O=C(Nc1nnc(NC2CCCc3ccccc32)s1)c1ccc([N+](=O)[O-])o1 | Human cytomegalovirus | - | Polymerase | IC50 | target | - | - | - | - | >25 µM
O=C(Nc1ncc([N+](=O)[O-])s1)c1ccccc1O | Encephalitozoon intestinalis | RK-13 | - | inhibition | culture | - | 0.01 µg/mL | - | - | 30%
C[C@H](N)C(=O)N[C@@H](CNC(=O)/C=C/C(N)=O)C(=O)O | - | HeLa | - | CC50 | toxicity | - | - | - | - | >200 µg/mL
COc1cc2oc(=O)ccc2cc1CC(O)C(C)(C)O | Trichophyton mentagrophytes | - | - | MIC | culture | - | - | - | - | 250 µg/mL
N#Cc1ccc(C(=O)Nc2nnc(NCC(c3ccccc3)c3ccccc3)s2)cc1 | Human cytomegalovirus | - | Polymerase | IC50 | target | - | - | - | - | <25 µM
Nc1nc2c(ncn2COCOCP(=O)(O)O)c(=O)[nH]1 | Parainfluenza virus | - | - | EC50 | culture | neutral red | - | - | C243 (TYPE 3) | 3 µg/mL
O=C(c1ccccc1)N1C[C@H](CN2CCC(c3ccccc3)CC2)[C@@H](c2ccccc2)C1 | - | - | CCR5 | IC50 | target | radiometric | - | CCR5-D276A | - | 0.016 µM
COc1cc(C[C@H](C)[C@H](C)Cc2ccc(O)c(O)c2)ccc1O | Candida colliculosa | - | - | MIC80 | culture | broth dilution | - | - | CCC 122-2000 | 31.25 µg/mL

Repeating the first 2 entries:

CCOc1ccc2ccccc2c1C(=O)Nc1nnc(NCC(C)(C)C)s1 ; species: Human cytomegalovirus ; target: Polymerase ; read-out: IC50 ; test: target ; result: >25 µM
Nc1ncc2ncn(C3OC(C(NC(=O)C4CCCC4N)C(=O)O)CC(O)(C(O)CO)C3O)c2n1 ; cells: HeLa ; read-out: CC50 ; test: toxicity ; result: 1000 µg/mL